The record followed here is patent US9938562B2, “Naphthalene derived chromogenic enzyme substrates” (Glycosynth Limited, priority 2013, dated 2018).

The test system of the experiment is clinical isolates of E. coli. The experiment can be described thus: Glucuronide sensitivity screen, agar plates (CPS ID 3 or Columbia agar). The settings on record: E. coli O157 non-toxigenic. Format: cell-based.

As for 6-chloro-3-indolyl β-D-glucuronide, the Colour result is on record as “−”.
